Laboratory results: article PMC8072286, “Gcn5-Related N-Acetyltransferases (GNATs) With a Catalytic Serine Residue Can Play Ping-Pong Too” (Frontiers in Molecular Biosciences, 2021)

Test system: CCCCCCCC(=O)N(C)CCN
Test: purified protein
Conditions: AcCoA held at 0.5 mM; NANMO 0-2.5 mM, used as hydrochloride

PA3944 (Pseudomonas aeruginosa PAO1; E102A)
Km: 101 ± 13 µM
kcat: 0.15 s⁻¹
kcat/Km: 1500 M⁻¹ s⁻¹
